Assay results as given in US20020013478A1, “Calanolide analogues and methods of their use” (Sarawak Medichem Pharmaceuticals,Inc., priority 1994, published 2002).
Marks after values point to notes of the source that are not given here.

Experiments:
[1] = system: EBV; experiment: EBV assay: superinfection of Raji or Daudi cells with P3HR-1, immunofluorescence for EA and VCA; format: cell-based, Epstein-Barr virus; conditions: IC50/EC50
Source text: There are two prototypes of infectious EBV. One is exemplified by the virus derived from supernatant fluids of the P3HR-1cell line. This cell line produces nontransforming virus that causes the production of early antigen (EA) after primary infection or superinfection of B cell lines. The other prototype is exemplified by the B-95-8 virus. This virus immortalized cord blood lymphocytes and induced tumors in marmosets.
The virus used in our assays is P3HR-1.
Ramos is an exceptional B cell line derived from Burkitt's lymphoma tumor but containing no detectable EBV genome copies and is EBNA negative. Ramos/AW was obtained by in vitro infection of Ramos with the P3HR-1 virus and contains one resident EBV genome copy/cell. Raji is a Burkitt's lymphoma cell line containing 60 EBV genomes/cell, and will be the primary cell used for screening antiviral activity against EBV EA expression. Daudi is a low level producer that contains 152 EBV genome copies/cell. It spontaneously expresses EBV EA in 0.25%-0.5% of the cells. It will be used in follow-up studies to confirm activity. These cell lines respond to superinfection by EBV by expressing EA(D), EA(R), and VCA. All cell lines are maintained in RPMI-1640 medium supplemented by 10% FCS, L-glutamine and 100 μg/mL gentamicin. The cultures are fed twice weekly and the cell concentration adjusted to 3×10^5/mL. The cells are kept at 37° C. in a humidified atmosphere with 5% CO2.
Cells are infected with the P3HR-1 strain of EBV and the drugs to be tested are added after adsorption (45 minutes at 37° C.) and washing of the cell cultures. The cultures are incubated for two days in complete medium to allow viral gene expression. Following the 48 hr incubation period, the number of cells of each sample are counted and smears made. Monoclonal antibodies to the different EA components and VCA are then added to the cells incubated and washed. This is followed by a fluorescein conjugated rabbit anti-mouse Ig antibody; and the number of fluorescence positive cells in the smears are counted. The total number of cells in the cultures positive for EA or VCA are then calculated and compared.

[2] = system: HCMV; experiment: HCMV semi-automated CPE-inhibition assay in human foreskin fibroblast cells; format: cell-based, human cytomegalovirus; conditions: IC50/EC50
[3] = system: HBV; experiment: HBV replication in cultures of 2.2.15 cells, extracellular HBV virion DNA (primary assay); conditions: IC50/EC50
[4] = system: VZV; experiment: VZV plaque reduction assay in human foreskin fibroblast cells; format: cell-based, varicella zoster virus; conditions: IC50/EC50
Method: Two days prior to use, HFF cells are plated into six-well plates and incubated at 37° C. with 5% CO2 and 90% humidity. On the date of assay, the drug is made up at twice the desired concentration in 2x MEM and then serially diluted 1:5 in 2x MEM using six concentrations of drug. The initial starting concentration is usually 200 gg/mL down to 0.06 μg/mL. The virus to be used is diluted in MEM containing 10% FBS to a desired concentration which will give 20-30 plaques per well. The media is then aspirated from the wells and 0.2 mL of virus is added to each well in duplicate with 0.2 mL of media being added to drug toxicity wells. The plates are then incubated for one hour with shaking every fifteen minutes. After the incubation period, an equal amount of 1% agarose was added to an equal volume of each drug dilution. This will give final drug concentrations beginning with 100 μg/mL and ending with 0.03 μg/mL and a final agarose overlay concentration of 0.5%. The drug agarose mixture is applied to each well in 2 mL volume and the plates then incubated for three days, after which the cells were stained with a 1.5% solution of neutral red. At the end of 4-6hr incubation period, the stain is aspirated, and plaques counted using a stereomicroscope at lOx magnification.
The procedure is essentially the same as for the HSV plaque assay described above with two exceptions:
1. After addition of the drug, the plates are incubated for ten days.
2. On days three and six, an additional 1 mL overlay with equal amounts of 2x MEM and 1% agarose are added.

[5] = system: HIV-1; conditions: IC50/EC50
[6] = system: HCMV isolates Towne, AD169, E. Mann, Coffman, C9208; experiment: Anti-CMV plaque reduction assay against various laboratory and clinical isolates (Example 40); format: cell-based, human cytomegalovirus; conditions: MTC/EC50
Method: On the date of assay, the drug is made up at twice the desired concentration in 2x MEM and then serially diluted 1:5 in 2x MEM using six concentrations of drug. The initial starting concentration is usually 200 gg/mL down to 0.06 μg/mL. […] The media is then aspirated from the wells and 0.2 mL of virus is added to each well in duplicate with 0.2 mL of media being added to drug toxicity wells. The plates are then incubated for one hour with shaking every fifteen minutes. […] This will give final drug concentrations beginning with 100 μg/mL and ending with 0.03 μg/mL and a final agarose overlay concentration of 0.5%. The drug agarose mixture is applied to each well in 2 mL volume and the plates then incubated for three days, after which the cells were stained with a 1.5% solution of neutral red. At the end of 4-6hr incubation period, the stain is aspirated, and plaques counted using a stereomicroscope at lOx magnification. The procedure again is nearly the same as for HSV with a few minor changes. […] The assay is incubated for 14 days with the additional 1 mL overlays being applied on days four and eight. The procedure for the liquid overlay plaque assay is similar to that using the agarose overlay. The procedure for adding the virus is the same as for the regular plaque assay. The drugs are made up in a concentration to be used in MEM with 2% FBS. The drugs are not made up at 2x concentration as in the previous assays but are made up at the desired concentration. For HSV-1 and HSV-2 assays, an antibody preparation obtained from Baxter Health Care Corporation is diluted 1:500 and added to the media that the drug is diluted in. For CMV and VZV, no antibody in the overlay is utilized. For the CMV assay, additional medium without new drug is added on day five and allowed to incubate for a total of 10 days. For VZV, additional medium is added on day five and incubated for a total of 10 days. At the end of the incubation period for all of the assays, 2 mL of 1:10 dilution of stock neutral is added to each well incubated for six hours. The liquid is then aspirated off and plaques enumerated using a stereomicroscope. Five calanolide analogues, prepared as described above, were further evaluated for their anti-HCMV activity in plaque reduction assay against various laboratory and clinical isolates (Towne, AD 169, E. Mann, Coffinan, and […]).

Row | Structure (SMILES) | EBV SI [1] | HCMV SI [2] | HBV SI [3] | VZV SI [4] | TI [5] | other results
1 | CCCc1cc(=O)oc2c3c(c4c(c12)OC(C)(C)C=C4)OC(C(C)C)C(C)C3=O (racemic) [(+)-15e] | <1 | <4 | <8.6 | <1 |  | 
2 | CCCc1cc(=O)oc2c3c(c4c(c12)OC(C)(C)C=C4)OC(C)(C)C(C)C3=O (racemic) [(±)-15b, (±)-10,11-Dihydro-6,6,10,10,11-pentamethyl-4-propyl-2H, 6H, 12H-benzo[1,2-b:3,4-b′:5,6-b″]tripyran-2,12-dione] | <1 | <3 | <31 | <3 |  | 
3 | CCCc1cc(=O)oc2c3c(c4c(c12)OC(C)(C)C=C4)OC(CC)C(C)C3=O (racemic) [(±)-15c, (±)-10,11-trans-10,11-Dihydro-10-ethyl-4-propyl-6,6,11-trimethyl-2H,6H,12H-benzo[1,2-b:3,4-b ″]tripyran-2,12-dione] | <1 | <4 | <15 | <3 |  | 
4 | CCCc1cc(=O)oc2c3c(c4c(c12)OC(C)(C)C=C4)OC(C)C(C)(C)C3O (racemic) [(±)-16b, (±)-10,12-trans-10,11-dihydro-12-hydroxy-6,6,10,11,11-pentamethyl-4-propyl-2H,6H,12H-benzo [1,2-b:3,4-b′:5,6-b″]tripyran-2-one] |  |  |  |  | 7 | 
5 | CCCc1cc(=O)oc2c3c(c4c(c12)OC(C)(C)C=C4)OC(C)(C)C(C)C3O (racemic) [(±)-16d, (±)-11,12-trans-10,11-dihydro-12-hydroxy-6,6,10,10,11-pentamethyl-4-propyl-2H,6H,12H-benzo [1,2-b:3,4-b′:5,6-b″]tripyran-2-one] |  |  |  |  | 4 | 
6 | CCCc1cc(=O)oc2c3c(c4c(c12)OC(C)(C)C=C4)OC(CC)C(C)C3O (racemic) [(±)-16e, (±)-10,11-trans-11,12-cis-10,11-Dihydro-10-ethyl-12-hydroxy-4-propyl-6,6,11-trimethyl-2H,6H,12H-benzo [1,2-b:3,4-b′:5,6-b″]tripyran-2-one] |  |  |  |  | 8 | 
7 | CCCc1cc(=O)oc2c3c(c4c(c12)OC(C)(C)C=C4)OC(CC)C(C)C3O (racemic) [(±)-16f, (±)-10,11-qrans-11,12-trans-10,11-dihydro-10-ethyl-12-hydroxy4-propyl-6,6,11-trimethyl-2H,6H,12H-benzo [1,2-b:3,4-b′:5,6-b″]tripyran-2-one] |  |  |  |  | 9 | 
8 | CCCc1cc(=O)oc2c(C(=O)[C@@H](C)[C@@H](C)O)c(O)c3c(c12)OC(C)(C)C=C3 (relative stereo) [(±)-8a, 6,6-Dimethyl-9-hydroxy-10-[2(S*)-methyl-3(R*)-hydroxybutyro-]4-propyl-2H,6H-benzo[1,2-b:3,4b′]dipyran-2-one] |  |  |  |  | 4 | 
9 | CCCc1cc(=O)oc2c(C(=O)[C@@H](C)[C@H](C)O)c(O)c3c(c12)OC(C)(C)C=C3 (relative stereo) [(±)-8b, 6,6-Dimethyl-9-hydroxy-10-12(S*)-methyl-3(S*)-hydroxybutyro]4-propyl-2H,6H-benzo[1,2-b:3,4-b′]dipyran-2-one] |  |  |  |  | 9 | 
10 | CCCc1cc(=O)oc2c3c(c4c(c12)OC(C)(C)CC4)OC(C)C(C)C3=O (single isomer, unassigned; (+)) [(+)-18a] | <1 | <1 | 1 | <1 |  | 
11 | CCCc1cc(=O)oc2c3c(c4c(c12)OC(C)(C)C=C4)OC(C)C(C)C3=O (single isomer, unassigned; (-)) [(−)-7] | <1 | <1.2 | <32 |  |  | 
12 | CCCc1cc(=O)oc2c3c(c4c(c12)OC(C)(C)C=C4)OC(C)C(C)C3=O (single isomer, unassigned; (-)) [(−)-7a] |  | <3 | <8.6 |  |  | 
13 | CCCc1cc(=O)oc2c3c(c4c(c12)OC(C)(C)CC4)OC(C)C(C)C3O (single isomer, unassigned; (-)) [(−)-23] |  | <5 | 97 | <4 |  | TI ([6]; isolate AD169): 3.2; TI ([6]; isolate C9208): 3.3; TI ([6]; isolate Coffman): <32; TI ([6]; isolate E. Mann): 3.2; TI ([6]; isolate Towne): 3.2
14 | CC1Oc2c3c(c4c(-c5ccccc5)cc(=O)oc4c2C(O)C1C)OC(C)(C)C=C3 (single isomer, unassigned; (-)) [(−)-24] | <1 | <4 | <15 | <3 |  | 
15 | CCCc1cc(=O)oc2c3c(c4c(c12)OC(C)(C)C=C4)O[C@H](C)[C@@H](C)[C@@H]3O [(+)-1, (+)-Calanolide A] | <1 | <4 | <67 |  |  | 
16 | CCCc1cc(=O)oc2c3c(c4c(c12)OC(C)(C)C=C4)O[C@H](C)[C@H](C)C3=O [(+)-7a] | <3 | <3 | 153^d |  |  | 
17 | CCCc1cc(=O)oc2c3c(c4c(c12)OC(C)(C)C=C4)O[C@@H](C)[C@H](C)[C@H]3O [(−)-1, (-)-Calanolide A] | <1 | <4 | <6 |  |  | 
18 | CCCc1cc(=O)oc2c3c(c4c(c12)OC(C)(C)C=C4)O[C@@H](C)[C@H](C)[C@@H]3O [(−)-calanolide B, (-)-Calanolide B] | <1 | 30 | <100 | <5 |  | TI ([6]; isolate AD169): 3.2; TI ([6]; isolate C9208): 3.3; TI ([6]; isolate Coffman): <31; TI ([6]; isolate E. Mann): 3.2; TI ([6]; isolate Towne): <31
19 | CCCc1cc(=O)oc2c1c1c(c3oc(C)c(C)c(=O)c32)C=CC(C)(C)O1 [Compound 5, 6,6,10,11-tetramethyl-4-propyl-2H,6H,12H-benzo[1,2-b:3,4-b′:5,6-b″]tripyran-2,12-dione] | <1 | <1 | <209 | <3 |  | 
